Measured values as given in patent US6881741B2 (ViroChem Pharma Inc., priority 2001, dated 2005).

Protein sequences, listed by entry. Tags and fused reporters are not part of them. Residues count along the entry.
UniProt P26663, 2420-3010 limits assumed: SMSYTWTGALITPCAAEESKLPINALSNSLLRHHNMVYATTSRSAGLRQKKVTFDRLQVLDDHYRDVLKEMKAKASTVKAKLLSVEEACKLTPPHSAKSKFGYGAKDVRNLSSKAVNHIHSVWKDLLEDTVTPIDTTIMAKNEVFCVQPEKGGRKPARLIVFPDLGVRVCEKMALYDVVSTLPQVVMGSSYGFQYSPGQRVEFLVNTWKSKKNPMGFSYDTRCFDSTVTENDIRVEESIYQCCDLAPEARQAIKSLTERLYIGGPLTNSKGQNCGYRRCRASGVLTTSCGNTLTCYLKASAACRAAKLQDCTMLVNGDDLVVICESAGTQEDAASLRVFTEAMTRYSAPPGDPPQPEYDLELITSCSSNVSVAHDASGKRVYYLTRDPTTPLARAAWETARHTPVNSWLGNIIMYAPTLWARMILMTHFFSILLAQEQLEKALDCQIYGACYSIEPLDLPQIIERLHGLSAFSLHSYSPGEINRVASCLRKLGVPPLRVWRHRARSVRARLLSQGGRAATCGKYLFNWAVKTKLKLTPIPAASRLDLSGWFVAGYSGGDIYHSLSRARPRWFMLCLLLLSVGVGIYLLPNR

Biological target: recombinant HCV NS5B (HCV RNA-dependent RNA polymerase) (Hepatitis C virus genotype 1b, UniProt P26663)
Experiment: In vitro HCV RdRp Flashplate scintillation proximity assay (STREP-FLASH ASSAY)
Format: biochemical
[1] = related polymerase activity (Example 27 list)
[2] = read-out: IC50 (polymerase activity), HCV polymerase activity, list of compounds of Example 27

**Q.** Which IC50 [1] does the source give for `O=C(O)c1sc(-c2ccccc2)cc1N(C(=O)c1ccc(Cl)cc1Cl)C1CCNCC1` here?
**A.** < 5 µM

**Q.** For `Cc1ccc(C(=O)N(c2cc(-c3ccccc3)sc2C(=O)O)C2CCNCC2)cc1`, which IC50 [1] is on record?
**A.** < 5 µM

**Q.** With `O=C(O)c1sc(-c2ccccc2)cc1N(C(=O)c1ccc(Cl)cc1Cl)C1CCCNCC1` (stereo not drawn) as the compound, how does the IC50 [2] read?
**A.** < 5 µM

**Q.** For `CC1CCC(C(=O)N(c2cc(-c3ccccc3)sc2C(=O)O)C2CCNCC2)CC1` (stereo not drawn), which IC50 [2] is on record?
**A.** > 20 µM

**Q.** What about the IC50 (read-out: IC50 (polymerase activity), HCV polymerase activity, list of compounds of Example 27, LITHIUM SALT) of the same compound?
**A.** 5 to 20 µM

**Q.** With `CC1CNCCC1N(C(=O)c1ccc(Cl)cc1Cl)c1cc(-c2ccccc2)sc1C(=O)O` (stereo not drawn) as the compound, how does the IC50 [2] read?
**A.** < 5 µM

Read-outs that look alike come from different tables or passages of the source.
